Deep mutational scan of the Zika virus protease

Values reported by Ni et al. 2025 (doi:10.1038/s41467-025-63602-z).

Chain scanned (Zika virus MR766; NS2B from position 2 to 131, then the start of NS3):
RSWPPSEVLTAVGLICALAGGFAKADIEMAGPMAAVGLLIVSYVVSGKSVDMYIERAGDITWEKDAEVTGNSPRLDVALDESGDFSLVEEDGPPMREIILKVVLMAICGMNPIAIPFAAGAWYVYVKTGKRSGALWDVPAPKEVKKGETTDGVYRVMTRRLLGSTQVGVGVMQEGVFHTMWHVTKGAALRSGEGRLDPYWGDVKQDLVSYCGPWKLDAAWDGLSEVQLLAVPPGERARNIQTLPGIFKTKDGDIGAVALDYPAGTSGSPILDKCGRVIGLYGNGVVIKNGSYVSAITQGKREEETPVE

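Libraries of single mutants were passaged as virus pools on Huh-7.5 cells. Deep sequencing gave the change in frequency of each mutant relative to wild type, averaged over three replicate libraries (two for positions 207-308). The aim was to find sites where inhibitor-binding pockets cannot change.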

Scale: log2 effect, wild type = 0; the lower, the more harmful to the virus. A change reads original residue, position, new residue.

substitution,effect (log2)
E303K,-4.63
D65Y,-4.74
L280N,-4.75
G92V,-4.69
G120I,-2.04
D76L,-0.22
V156Q,-5.89
R96V,-4.88
R74E,-5.34
P93F,-2.77
W220S,-7.54
W3Y,-1.56
V41W,-5.36
T265K,-4.15
K142M,-1.64
D221F,-5.88
E308V,-0.26
Y292K,-4.26
S82W,-2.45
A230Q,-4.68
L259C,-4.91
V77R,-7.68
K64L,0.30
G13D,-5.93
S291K,-5.18
V286G,-6.48
K24L,-7.48
S266C,-5.27
K273T,-2.61
P116G,-6.33
R96S,-2.01
M52R,-7.82
E148C,-2.07
A119N,-5.90
W200Y,-5.25
V44N,-5.04
G20V,-6.98
S86K,-3.59
S132F,-6.23
T305Y,0.74
A140E,-5.76
S42C,-5.56
R236I,0.95
A237G,-1.42
S82M,-4.23
P262*,-6.04
M52Y,-5.62
V307C,0.16
M29A,-1.08
G70L,-7.51
A23F,-5.21
L271D,-3.42
G70P,-6.55
L18A,-3.05
G120E,-5.21
L271N,-3.32
K101I,-6.86
H178Y,-5.08
D272L,-4.59
S49L,-7.77
I54N,-5.59
L38T,-2.60
S82E,-6.21
G20Q,-5.22
D217L,-6.68
A258L,-6.70
S132I,-6.88
V231T,-4.48
D51F,-5.32
Q241T,-7.64
L87S,-7.52
A78N,0.18
K273P,-0.96
P306Q,-4.18
E148Y,-3.06

The authors count -1 or higher as tolerated. Position 1 is the last residue of NS2A. Positions 1-103, 104-206 and 207-308 were made and measured as separate libraries. Six mutants with high scores were retested singly and none clearly outgrew wild type, so positive values are not proof of better growth. An asterisk is a stop codon; stop codons read about -7, near the floor of the assay.